Anti-infective test results gathered from many reports (values: NIAID ChemDB through PubChem).

All rows: growth or infection tests; agent: Herpes simplex virus 2; cells: E6SM; measure: EC50

An empty or dashed field is not shown.

| smiles | strain or isolate | read by | result |
|---|---|---|---|
| O=[N+]([O-])c1cc([C@H]2C[C@H](O)[C@@H](CO)O2)c(F)cc1F | G | cytopathic effect | >400 µg/mL |
| CC=NC(=N)c1nc(-c2ccccc2)n(COCCO)n1 | G | cytopathic effect | >40 µg/mL |
| OCCCCn1nncc1Cn1ncc2c(SCc3ccccc3)ncnc21 | G |  | >400 µg/mL |
| C#C[C@H](O)C1=C[C@@H](n2cnc3c(N)ncnc32)[C@H](O)[C@@H]1O | G | cytopathic effect | >100 µg/mL |
| Cc1cc([C@@H]2C[C@H](O)[C@@H](CO)O2)c(F)cc1Cl | 196 | cytopathic effect | >400 µg/mL |
| CO[C@H]1[C@H]2O[Si](C(C)C)(C(C)C)O[Si](C(C)C)(C(C)C)OC[C@@H]2O[C@@H]1c1ccccc1 | G | cytopathic effect | >16 µg/mL |
| CC(C)CS[C@H]1C[C@@H](n2cnc3c(N)ncnc32)[C@H](O)[C@@H]1O | G | cytopathic effect | 400 µg/mL |
| CC1(C)[C@@H](CO)CC[C@@]1(C)Cn1cc(Br)c(=O)[nH]c1=O | G | cytopathic effect | >400 µg/mL |
| OC[C@H]1O[C@H](c2cncc(Br)c2)[C@@H](O)[C@H]1O | G | cytopathic effect | ≥100 µg/mL |
| COc1cc(Cc2cnc(-n3c(-c4ccccc4)nc4ccc(Br)cc4c3=O)nc2N)cc(OC)c1OC | G | cytopathic effect | 80 µg/mL |
| COC(=O)[C@H](C)NP(=O)(OC[C@H]1O[C@@H](n2cc(/C=C/Br)c(=O)[nH]c2=O)C[C@@H]1O)Oc1ccccc1 | G | cytopathic effect | >48 µM |
| O=C(CC1CCCCC1)N(O)c1ccccc1 | G | cytopathic effect | >80 µg/mL |
| Nc1cc(OC[C@H](CO)OCP(=O)(O)O)nc(N)n1 | G | cytopathic effect | 17 µM |
| O=c1[nH]c(=O)n([C@H]2C[C@H](O)[C@@H](CO)O2)cc1/C=C/Br | G | cytopathic effect | >80 µM |
| OC[C@H]1O[C@@H](c2cc(C(O)CI)c(F)cc2F)C[C@@H]1O | G | cytopathic effect | >16 µg/mL |
| O=c1[nH]c(=O)n([C@H]2C[C@H](O)[C@@H](CO)S2)cc1C1CCCCC1 | G 196 LYONS | cytopathic effect | 800 µM |
| N#Cc1cncc([C@H]2O[C@H](CO)[C@H](O)[C@@H]2O)c1 | G | cytopathic effect | ≥100 µg/mL |
| CC=NC(=N)c1nc(-c2ccc(OC)cc2)n(Cc2ccccc2)n1 | G | cytopathic effect | >40 µg/mL |
| Cc1cn([C@H]2OC[C@@H](CO)C2F)c(=O)[nH]c1=O | G | cytopathic effect | >80 µg/mL |
| Nc1nc(-n2c(-c3ccccc3)nc3ccc(Br)cc3c2=O)nnc1-c1cccc(Cl)c1Cl | G | cytopathic effect | 48 µg/mL |
| N#Cc1cc([C@H]2C[C@H](O)[C@@H](CO)O2)c(F)cc1F | 196 | cytopathic effect | >400 µg/mL |
| COc1cc(Cc2cnc(-n3c(C)nc4ccc(Br)cc4c3=O)nc2N)cc(OC)c1OC | G | cytopathic effect | >80 µg/mL |
| OC[C@H]1O[C@@H](c2cncc(Br)c2)[C@@H](O)[C@H]1O | G | cytopathic effect | ≥100 µg/mL |
| OC[C@H]1O[C@H](c2cc(Br)c(F)cc2F)C[C@@H]1O | G | cytopathic effect | >400 µg/mL |
| N#Cc1cncc([C@H]2O[C@H](CO)[C@@H](O)[C@@H]2O)c1 | G | cytopathic effect | ≥100 µg/mL |
| Nc1ncnc2c1ncn2[C@H]1OC[C@@H](CO)C1O | G | cytopathic effect | >80 µg/mL |
| C=C[C@H](O)C1=C[C@@H](n2cnc3c(N)ncnc32)[C@H](O)[C@@H]1O | G | cytopathic effect | >100 µg/mL |
| Nc1nc(N)c(Cc2ccccc2)c(OCCOCP(=O)(O)O)n1 | G | cytopathic effect | 660 µM |
| CC=NC(=N)c1nc(-c2cccc(OC)c2)n(COCCO)n1 | G | cytopathic effect | 300 µg/mL |
| Cc1cn([C@@H]2OC[C@H](CO)[C@H]2O)c(=O)[nH]c1=O | G | cytopathic effect | >400 µg/mL |
| CCCc1cn([C@H]2C[C@H](O)[C@@H](CO)O2)c(=O)[nH]c1=O | G 196 LYONS | cytopathic effect | 770 µM |
| CC=NC(=N)c1nc(-c2cccc(OC)c2)n(Cc2ccccc2)n1 | G | cytopathic effect | >10 µg/mL |
| OC[C@H]1O[C@@H](c2cc(C(O)C(I)I)c(F)cc2F)C[C@@H]1O | G | cytopathic effect | >80 µg/mL |
| Nc1nc(Cl)c2ncn([C@H]3CO[C@@H](CO)C3)c2n1 | G | cytopathic effect | 300 µg/mL |
| OC[C@H]1O[C@@H](c2cc(Cl)c(F)cc2F)C[C@@H]1O | G | cytopathic effect | >400 µg/mL |
| CSc1ncnc2c1cnn2Cc1cn(CCCCO)nn1 | G |  | >400 µg/mL |
| CC(C)(C)c1cn([C@H]2C[C@H](O)[C@@H](CO)S2)c(=O)[nH]c1=O | G 196 LYONS | cytopathic effect | 497 µM |
| OC[C@H]1O[C@@H](c2ccccc2)[C@H](O)[C@@H]1O | G | cytopathic effect | >400 µg/mL |
| CC1(C)[C@@H](CO)CC[C@@]1(C)Cn1nnc2c(=O)[nH]cnc21 | G | cytopathic effect | >400 µg/mL |
| OC[C@H]1O[C@@H](c2cc(F)c(F)cc2F)C[C@@H]1O | 196 | cytopathic effect | >400 µg/mL |
| CC1(C)[C@@H](CO)CC[C@@]1(C)Cn1ccc(=O)[nH]c1=O | G | cytopathic effect | >400 µg/mL |
| CC(C)(C)c1cn([C@H]2C[C@H](O)[C@@H](CO)O2)c(=O)[nH]c1=O | G 196 LYONS | cytopathic effect | >1500 µM |
| OC[C@H]1O[C@@H](c2cc(Br)c(F)cc2F)C[C@@H]1O | 196 | cytopathic effect | >400 µg/mL |
| Nc1nc2c(ccn2[C@H]2CO[C@@H](CO)C2)c(=O)[nH]1 | G | cytopathic effect | 300 µg/mL |
| C=C(N=CC)c1nc(-c2ccc(OC)cc2)n([C@@H]2O[C@H](CO)[C@@H](O)[C@H]2O)n1 | G | cytopathic effect | 300 µg/mL |
| CSc1ncnc2c1cnn2Cc1cnnn1CCCCO | G |  | >400 µg/mL |
| O=c1[nH]c(=O)n([C@H]2C[C@H](O)[C@@H](CO)O2)cc1C1CC1 | G 196 LYONS | cytopathic effect | 91 µM |
| C=C(N=CC)c1nc(-c2cccc(C)c2)n(C2O[C@H](CO)[C@@H](O)[C@H](O)[C@H]2O)n1 | G | cytopathic effect | 300 µg/mL |

Conditions beyond the fields shown may differ between rows. ECn is the concentration giving n% inhibition of infection, replication or growth.